{"source": "PubChem BioAssay AID504761 (Drosophila RNAi Screening Center, 2011)", "assay": "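Fly genes whose silencing reduces dengue virus type 2 infection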 (primary screen)", "cell system": "D.Mel-2 cells from Drosophila", "reagents": "long dsRNA against Drosophila genes", "conditions": "infection with dengue virus type 2; dose and infection time not stated", "measured": "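Cells stained for dengue envelope protein and imaged; percent of infected cells per well on duplicate plates, ranked by infection, with stained nuclei counted for cell number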", "reading the numbers": "infection score: higher = more virus-infected cells", "hit rule": "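Low infection ranks in the two replicates (chance level up to 0.065) followed by a retest with a 1.5-fold or larger significant decrease, p below 0.05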", "meaning of the calls": "active = confirmed: knock-down lowers infection; inactive = not picked or not confirmed", "note": "The deposit covers about 22,000 reagents; below is a random part of those with a known target gene and a result. Over the whole deposit, 116 (0.52%) got an active call. 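Calls depend on retest data that are not deposited; infection was ranked per plate without normalising between plates; the unit of the infection score is not given.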 A number with no mark means an inactive call. Not all columns of the deposit are shown. The record does not give: the amount of reagent, the time to read-out."}
{"Gene":"CG33477 (GeneID 2768726)","dsRNA":"DRSC22934","infection score, replicate 1":2.51}
{"Gene":"RtGEF (GeneID 35306)","dsRNA":"DRSC03604","infection score, replicate 1":13.3}
{"Gene":"RtGEF (GeneID 35306)","dsRNA":"DRSC22207","infection score, replicate 1":4.62}
{"Gene":"CG9101 (GeneID 32452)","dsRNA":"DRSC20152","infection score, replicate 1":3.38}
{"Gene":"CG9101 (GeneID 32452)","dsRNA":"DRSC27575","infection score, replicate 1":7.3}
{"Gene":"SerRS (GeneID 33518)","dsRNA":"DRSC00496","infection score, replicate 1":2.3}
{"Gene":"SMC2 (GeneID 36653)","dsRNA":"DRSC07544","infection score, replicate 1":6.69}
{"Gene":"SMC2 (GeneID 36653)","dsRNA":"DRSC29763","infection score, replicate 1":6.35}

2 of these entries, reformatted.
SerRS (GeneID 33518) [DRSC00496]
- infection score, replicate 1: 2.3

SMC2 (GeneID 36653) [DRSC07544]
- infection score, replicate 1: 6.69

Additional entries follow:
{"Gene":"Polr3F (GeneID 42619)","dsRNA":"DRSC15785","infection score, replicate 1":1.13}
{"Gene":"CG12974 (GeneID 40350)","dsRNA":"DRSC11684","infection score, replicate 1":5.98}
{"Gene":"a10 (GeneID 39906)","dsRNA":"DRSC11319","infection score, replicate 1":2.21}
{"Gene":"SKIP (GeneID 42601)","dsRNA":"DRSC14713","infection score, replicate 1":2.42}
{"Gene":"SKIP (GeneID 42601)","dsRNA":"DRSC14714","infection score, replicate 1":1.58}
{"Gene":"SKIP (GeneID 42601)","dsRNA":"DRSC15864","infection score, replicate 1":0.75}
{"Gene":"SKIP (GeneID 42601)","dsRNA":"DRSC16195","infection score, replicate 1":8.47}
{"Gene":"SKIP (GeneID 42601)","dsRNA":"DRSC16196","infection score, replicate 1":2.49}
{"Gene":"CG44325 (GeneID 31831)","dsRNA":"DRSC18423","infection score, replicate 1":8.58}
{"Gene":"Tomosyn (GeneID 32217)","dsRNA":"DRSC19365","infection score, replicate 1":2.72}
{"Gene":"Tomosyn (GeneID 32217)","dsRNA":"DRSC19692","infection score, replicate 1":3.44}
{"Gene":"Tomosyn (GeneID 32217)","dsRNA":"DRSC19782","infection score, replicate 1":0.56}
{"Gene":"Tomosyn (GeneID 32217)","dsRNA":"DRSC19842","infection score, replicate 1":7.29}
{"Gene":"Tomosyn (GeneID 32217)","dsRNA":"DRSC25047","infection score, replicate 1":1.68}
